# PMC3576412, “A Force-Activated Trip Switch Triggers Rapid Dissociation of a Colicin from Its Immunity Protein” (PLoS Biology, 2013)
# T1: full length colicin E9 (E. coli, UniProt P09883 1-582)
# T1 construct: also called full length ColE9
# T1 sequence: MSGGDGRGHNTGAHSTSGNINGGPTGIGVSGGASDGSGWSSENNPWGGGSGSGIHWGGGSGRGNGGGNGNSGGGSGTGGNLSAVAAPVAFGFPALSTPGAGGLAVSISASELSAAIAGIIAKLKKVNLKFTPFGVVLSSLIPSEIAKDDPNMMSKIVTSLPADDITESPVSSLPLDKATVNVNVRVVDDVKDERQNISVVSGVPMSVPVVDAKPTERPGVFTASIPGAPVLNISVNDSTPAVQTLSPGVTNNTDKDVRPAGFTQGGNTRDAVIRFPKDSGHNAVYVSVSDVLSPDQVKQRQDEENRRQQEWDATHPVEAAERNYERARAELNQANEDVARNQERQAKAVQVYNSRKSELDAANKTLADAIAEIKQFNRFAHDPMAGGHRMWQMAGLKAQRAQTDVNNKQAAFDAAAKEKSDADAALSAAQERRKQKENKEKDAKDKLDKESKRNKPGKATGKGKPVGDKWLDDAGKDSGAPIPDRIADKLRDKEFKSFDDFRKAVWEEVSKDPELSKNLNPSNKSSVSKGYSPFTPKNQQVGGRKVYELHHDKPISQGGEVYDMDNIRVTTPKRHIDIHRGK
# B1: Im9 (S81C) derivatised with methyl-(PEG)12-maleimide (natural protein)
# chain: not shown
# notes: also called derivatised Im9 (S81C); source: derivatised with MM(PEG)12 and separated by size exclusion chromatography
# Molecular target: T1, full length colicin E9
# Assay: SEC
# Conditions: both partners purified
binder,measurement,value
B1,binding result,binds
